pIC50: −log10 of the molar value. Where two headings read alike, the source gives them in different places.

Amino acid sequences for entries named in this document (tags omitted). Residues count along the entry.
UniProt P08149, 44-581 limits assumed: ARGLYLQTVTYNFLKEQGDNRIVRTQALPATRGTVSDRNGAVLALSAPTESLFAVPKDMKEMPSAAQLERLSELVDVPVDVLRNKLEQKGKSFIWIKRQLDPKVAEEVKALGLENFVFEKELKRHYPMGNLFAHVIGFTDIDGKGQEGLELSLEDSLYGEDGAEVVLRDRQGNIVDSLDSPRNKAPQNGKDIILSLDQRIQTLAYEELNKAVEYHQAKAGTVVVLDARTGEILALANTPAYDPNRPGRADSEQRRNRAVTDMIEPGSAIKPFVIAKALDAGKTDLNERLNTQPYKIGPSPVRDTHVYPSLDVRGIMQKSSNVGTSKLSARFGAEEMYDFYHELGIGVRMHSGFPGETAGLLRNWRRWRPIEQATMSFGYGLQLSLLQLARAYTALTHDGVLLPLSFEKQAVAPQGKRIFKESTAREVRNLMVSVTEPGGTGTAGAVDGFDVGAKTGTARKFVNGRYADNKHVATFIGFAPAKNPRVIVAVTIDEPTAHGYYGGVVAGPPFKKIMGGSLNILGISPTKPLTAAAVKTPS

Assay [1] has as its target T1, N. gonorrhoeae PBP 2 (Neisseria gonorrhoeae, UniProt P08149). In words: FP-based concentration-response competition assay with Bocillin-FL. Format: binding. The following applies: read-out: IC50 measured by FP, 0.01–200 µM compound, 1 µM PBP 2, 1 µM Bocillin-FL, four replicates. Here is the method:
(§1) A soluble construct of wild-type PBP 2 from the penicillin-susceptible strain of N. gonorrhoeae FA19 was expressed and purified as described previously. Bocillin FL™ was obtained from Invitrogen Inc. (Carlsbad, CA). Penicillin G and γ-Globulins from bovine blood (BGG) were purchased from Sigma (St. Louis, MO). Prior to use, all reagents were diluted in an assay buffer comprising 50 mM potassium phosphate, pH 8, and 0.1 mg/ml BGG. The DIVERSet library of 50,080 small lead compounds from ChemBridge Corporation (San Diego, CA) was provided by the MUSC Drug Discovery Core (DDC). […]
(§2) Measurements of fluorescence and FP were performed on a Spectramax M5 microplate reader (Molecular Devices, Sunnyvale, CA) with excitation and emission wavelengths of 485 nm and 520 nm, respectively, using a 515 nm filter to block residual excitation light and to minimize background interference. […] To minimize the polarization effects from any fluorophore bound to the surface of the well, both excitation and emission data were recorded from the top of the well. Reading time was 100 ms per well. […] Using the equation G = Iv/Ih and SoftMax® Pro Data Acquisition & Analysis Software (Molecular Devices, Sunnyvale, CA), the G-factor was determined with dilution series of Bocillin-FL-only (free tracer). […]

Assay [2] deals with T1, N. gonorrhoeae PBP 2. In words: FP high-throughput screening assay (Bocillin-FL binding to PBP 2). The following applies: FP signal of individual compound with PBP 2 and Bocillin-FL; four replicates. How it is done:
as §1, §2

In general, pIC50 refers to −log10 of the IC50, conventionally taken in molar units. On to `CC1=C(C(=O)O)N2C(=O)C(NC(=O)Cc3ccccc3)C2SC1` (stereo not drawn), for which the pIC50 at N. gonorrhoeae PBP 2 [1] is 5.51; at N. gonorrhoeae PBP 2 [1] (listed as cephalosporin), 5.52. Also, the “Compound (mP) (mean ± SD)” value at N. gonorrhoeae PBP 2 [2] stood at 51.8±3.7 mP.

The record behind these values is paper PMC3458020, “High-Throughput Screening for Novel Inhibitors of Neisseria gonorrhoeae Penicillin-Binding Protein 2” (PLoS ONE, 2012).
